# According to PMC7532339, “A cell-based large-scale screening of natural compounds for inhibitors of SARS-CoV-2” (Signal Transduction and Targeted Therapy, 2020):
# System: Vero-E6 cells
# Assay: Cytotoxicity assay (CCK-8)
# Assay type: cell-based
# Conditions: 48 h
# Experimental: Vero-E6 cells were seeded in 96-well plates (1 × 10^4 cells per well) and allowed to grow for 24 h before treatment. Then, serial 2-fold dilutions of compounds were added to the cells. At 48 h, the cells were incubated with 10 μL CCK-8 reagent (cell counting kit-8, Bimake) for 1 h at 37 °C. The absorbance at 450 nm was read by a Microplate Reader (Varioskan Flash, Thermo Fisher). Cell viability was expressed as a percentage of the treated cells to the control (untreated) cells. For each compound concentration, three wells were performed in parallel, and the mean values of the cell viability were calculated. The CC50 was calculated by nonlinear regression analysis using GraphPad Prism 8.0 software to determine the cytotoxic concentration at which 50% of the cells are viable.
substance,measurement,value
Brusatol,CC50,19 µM
